# Zika virus NS2B-NS3: effect of single substitutions on growth in cell culture

Reference: Ni et al. 2025, doi:10.1038/s41467-025-63602-z.

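Libraries of single mutants were passaged as virus pools on Huh-7.5 cells. Deep sequencing gave the change in frequency of each mutant relative to wild type, averaged over three replicate libraries (two for positions 207-308). The study looked for pockets that tolerate few changes, as a guide for inhibitor design.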

Chain scanned (Zika virus MR766; NS2B from position 2 to 131, then the start of NS3):
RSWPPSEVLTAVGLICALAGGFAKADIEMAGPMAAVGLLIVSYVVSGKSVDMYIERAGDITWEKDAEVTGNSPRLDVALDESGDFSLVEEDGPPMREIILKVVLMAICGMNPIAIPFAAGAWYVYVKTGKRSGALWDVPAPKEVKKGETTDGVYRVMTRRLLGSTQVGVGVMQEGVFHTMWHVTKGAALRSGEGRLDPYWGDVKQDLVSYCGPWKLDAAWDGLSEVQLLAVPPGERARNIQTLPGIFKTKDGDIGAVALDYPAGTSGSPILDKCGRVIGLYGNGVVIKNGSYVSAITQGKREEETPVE

Values are log2 effects on growth: 0 is wild type, lower means poorer growth. Substitutions are written as wild-type residue, site number, new residue. All changes here are to leucine.

For R1L the result was -5.44.
For S2L the result was -7.96.
For W3L the result was -2.70.
For P4L the result was -6.71.
For P5L the result was -7.59.
For S6L the result was -6.72.
For E7L the result was -6.87.
For V8L the result was 0.31.
For T10L the result was -3.32.
For A11L the result was -5.53.
For V12L the result was -3.69.
For G13L the result was -7.27.
For I15L the result was -1.10.
For C16L the result was -6.03.
For A17L the result was -2.91.
For A19L the result was -3.95.
For G20L the result was -7.65.
For G21L the result was -7.11.
For F22L the result was 0.43.
For A23L the result was -3.94.
For K24L the result was -7.48.
For A25L the result was -0.32.
For D26L the result was -6.70.
For I27L the result was -1.44.
For E28L the result was -4.05.
For M29L the result was -1.18.
For A30L the result was -5.23.
For G31L the result was -7.38.
For P32L the result was -6.95.
For M33L the result was -0.98.
For A34L the result was -6.45.
For A35L the result was -7.24.
For V36L the result was -3.06.
For G37L the result was -6.42.
For I40L the result was -1.06.
For V41L the result was -2.31.
For S42L the result was -7.64.
For Y43L the result was -6.00.
For V44L the result was -5.83.

A selection of 2 entries from above:

change	effect (log2)
A30L	-5.23
A35L	-7.24

The authors count -1 or higher as tolerated. Position 1 is the last residue of NS2A. The region was split into three libraries (1-103, 104-206, 207-308). Values above 0 are not proof of better growth: six high scorers were tested one by one, five grew less well than wild type and one about as well.